Target: BoNT A light chain (BoNT A Lc) (Clostridium botulinum, UniProt P0DPI0)
Test: Kinetic constants of BoNT A substrates, HPLC assays, non-linear regression

Row | Compound | Km compared with full-length SNAP-25 (in words) (versus full-length SNAP-25) | kcat (Table 4, FRET substrate, 4 nM BoNT A light chain, assays by HPLC, triplicate) | type of kinetics (in words) (initial hydrolysis rates at various substrate concentrations)
1 | CC[C@H](C)[C@H](NC(=O)[C@H](CCCNC(=N)N)NC(=O)[C@@H](NC(=O)[C@H](CCCNC(=N)N)NC(C)=O)C(C)C)C(=O)N[C@@H](CC(=O)O)C(=O)N[C@@H](C)C(=O)N[C@@H](C)C(=O)N[C@@H](CC(N)=O)C(=O)N[C@@H](CCC(N)=O)C(=O)N[C@@H](CCCNC(=N)N)C(=O)N[C@@H](C)C(=O)N[C@H](C(=O)N[C@@H](CCCNC(=N)N)C(=O)N[C@@H](CCSC)C(N)=O)[C@@H](C)O | statistically identical |  | 
2 | [DabcylK] R V R I D A A N Q R A T R M [SFC] |  | 1.7 ± 0.090 s⁻¹ | saturable Michaelis-Menten kinetics

Reference: patent US20120202754A1 (priority 2009, published 2012)
